What was measured:
[1] = tested on: RMAS-HHD targets loaded with peptide; test: Immunogenicity: CTL generation in HHD transgenic mice, 51Cr lysis of peptide-loaded targets; format: in vivo; details: 100 μg peptide s.c., responder: specific cytotoxicity >15% above unloaded targets
HLA A2.1 molecule = HLA A2.1 molecule (Homo sapiens, UniProt P04439, D140Y/D185E/D98H/E176V/E277Q/G131W/G231S/I119V/I121R/I166T/I218V/L300P/L318F/N151K/N90K/P208A/P217A/Q86G/Q94H/R138H/R169H/T345S); details: native peptides; relative affinity vs reference peptide HIVpol 589; lower RA = stronger binding

Row | Sequence | Responders/total mice [1] | RA (HLA A2.1 molecule)
1 | KIFGSLAFL [HER-2/neu 369] | 12/13 | –
2 | ALIHHNTHL [HER-2/neu 466] | – | 4.8
3 | AAGIGILTV [Mart-1 27] | 4/5 | –
